Molecular target: HCV NS5B RNA-dependent RNA polymerase (1b-BKΔ55) (Hepatitis C virus genotype 1b, UniProt P26663)
Assay: Inhibition of HCV NS5B polymerase by nucleoside triphosphate analogs (radiolabeled nucleotide incorporation assay)
Format: biochemical
Details: read-out: NTP Ki; Ki of the NTP analog, from NS5B IC50 by Cheng-Prusoff

Protein sequences, listed by entry. Tags and fused reporters are not part of them. Lines headed by an entry give the natural chain unless they say otherwise; changes in a name come on top. Residues count along the entry.
UniProt P26663, 2420-2955 limits assumed, stated change not applied: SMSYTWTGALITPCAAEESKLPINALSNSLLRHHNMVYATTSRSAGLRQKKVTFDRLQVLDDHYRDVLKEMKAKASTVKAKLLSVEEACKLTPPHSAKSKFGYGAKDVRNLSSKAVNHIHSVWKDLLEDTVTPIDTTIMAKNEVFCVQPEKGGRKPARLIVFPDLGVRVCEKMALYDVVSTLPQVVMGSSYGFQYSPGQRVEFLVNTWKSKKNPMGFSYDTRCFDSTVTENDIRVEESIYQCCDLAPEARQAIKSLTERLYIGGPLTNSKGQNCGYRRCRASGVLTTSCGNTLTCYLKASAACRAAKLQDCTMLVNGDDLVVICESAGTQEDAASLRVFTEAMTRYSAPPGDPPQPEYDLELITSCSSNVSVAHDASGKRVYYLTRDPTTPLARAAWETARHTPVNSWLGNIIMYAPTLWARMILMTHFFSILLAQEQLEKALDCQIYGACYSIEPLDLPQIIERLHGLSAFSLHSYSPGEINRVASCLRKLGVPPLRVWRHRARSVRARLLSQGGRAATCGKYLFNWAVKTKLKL

SMILES	Ki
CC(C)OP1(=O)OC[C@H]2O[C@@H](n3ccc(=O)[nH]c3=O)[C@](C)(C#N)[C@@H]2O1 (some centres unmarked)	0.3 µM
CCOc1nc(N)nc2c1ncn2[C@@H]1O[C@@H]2COP(=O)(OC3CCC3)O[C@H]2[C@@]1(C)C#N (some centres unmarked)	0.1 µM

— patent US9150603B2, “2′-cyano substituted nucleoside derivatives and methods of use thereof useful for the treatment of viral diseases” (priority 2011, dated 2015)
